# Library screen at single concentrations

A: 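Growth of Mycobacterium tuberculosis over 4 days (cholesterol / DPPC medium with tyloxapol); the read-out is not stated. Concentration: 500 µM. Higher reads as more growth inhibition (inferred: compounds with an IC50 in retests scored well above the rest). Of about 18,000 compounds tested this way, about 900 (5%) reached 50% or more in at least one test.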
B: 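Growth of Mycobacterium tuberculosis over 3 days (7H9 medium with glucose and tyloxapol); the read-out is not stated. Compounds at 500 µM. Direction is inferred from retests: higher values go with more growth inhibition. Size under these conditions: about 18,000 compounds, about 1,400 of them at 50% or above in at least one test.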

Values are the deposited “Percent Effect”, in %. The record does not define 0% and 100%; most values in the screen are far below 50% and negative numbers occur (in some assays of this library far below -100). Many other results are left out here, so strong results are more common than in the screen.

{"smiles": "Cc1nccn1CCNC(=O)C(C)(C)C", "B": -8.743}
{"smiles": "CSCC(=O)Nc1ccc(N2C(=O)CCCC2=O)cc1", "B": 5.205}
{"smiles": "CC/C(C)=C/CCN1CCC2(CCCNC2=O)C1", "stereo": "stereo not drawn", "A": 5.783}
{"smiles": "O=C(NCCO)NCc1ccncc1OCC(F)(F)F", "B": 0.6981}
{"smiles": "C1CC(OCCN2CCOCC2)CCN1", "B": 3.178}
{"smiles": "COCCC(CO)NC(=O)NCc1cc(Cl)ccc1C", "stereo": "stereo not drawn", "A": 11.21, "B": 41.42}
{"smiles": "Cc1n[nH]c(SCC(=O)NC[C@H]2CCCN2)n1", "B": -2.26}
{"smiles": "CNC(=O)C1CCN(Cc2c(F)cccc2Cl)C1", "stereo": "stereo not drawn", "A": 28.42}
{"smiles": "C[C@@]1(O)CCN(Cc2cncn2C2CCCC2)C[C@@H]1O", "B": -2.864}
{"smiles": "CC(=O)NC(C)C(=O)N1CCCC2(CC2)C1", "stereo": "stereo not drawn", "B": 2.702}
{"smiles": "O=c1[nH]cnc2ccc(Cl)cc12", "A": -4.459}
{"smiles": "CN1CCO[C@@H]2CCNC[C@@H]21", "B": -5.418}
{"smiles": "O=C1CCCN1Cc1cccc(C(=O)N2CCC2)c1", "B": -8.203}
{"smiles": "CC1CCCCN1C(=O)NC1CCC2(CC1)OCCO2", "stereo": "stereo not drawn", "B": -2.337}
{"smiles": "NCC(CO)Cc1cccnc1", "stereo": "stereo not drawn", "B": -1.702}
{"smiles": "CSCc1cccc(CNC(=O)c2ccon2)c1", "A": 39.82, "B": 49.35}
{"smiles": "COc1cc(NC(=O)Cn2ccnc2)c(OC)cc1Cl", "B": 8.618}
{"smiles": "CO[C@H]1CNCC1NC(=O)Cc1ccc(F)cc1Cl", "stereo": "stereo partly drawn", "A": -7.525}
{"smiles": "NCc1cccc(OCC(F)(F)F)n1", "B": 0.9733}
{"smiles": "CCCC(N)C(=O)N(CC)Cc1ccoc1", "stereo": "stereo not drawn", "B": 3.653}
{"smiles": "CC(=O)c1ccc(C(F)F)nc1", "B": 21.25}
{"smiles": "CC(C)CCC(O)CN1CCCN(C(N)=O)CC1", "stereo": "stereo not drawn", "B": 28.15}
{"smiles": "COC(=O)CCCNc1ccc2c(c1)OCCO2", "A": 76.85, "B": 57.46}
{"smiles": "C1CC(COCCc2noc(C3CNC3)n2)CCO1", "A": 74.26, "B": 90.26}
{"smiles": "Cc1nc(C2CC(O)C2)cc(N2CC[C@@H](O)C2)n1", "stereo": "stereo partly drawn", "B": 16.41}

Source: ChEMBL document CHEMBL3988442, “University of Dundee, Small-Polar-MMV Screening Library” (2021).